## Share of PSTVd loop 15 variants by leaf site

Source: Wu et al. 2024 (doi:10.1371/journal.ppat.1012142), supplementary data.

Region: loop 15 of PSTVd (intermediate strain), upper and lower strand joined, each 5' to 3', the first 7 letters being the upper strand, closing pairs included. Wild type: GGAAACCGCUACUAC. Varied positions (N): GGAAACCGNNNNNNC.

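A pool of all variants was put on leaves of three Nicotiana benthamiana plants. Samples came from the inoculated region at 5 days, the leaf margin at 10 and upper systemic leaves at 12.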

Numbers give reads per thousand; 0 = not seen among the reads, higher = more abundant. Each value is the mean of three plants. "Pool" is the share in the plasmid pool used as inoculum, on the same scale. The inoculated region was read from the minus strand, the other sites from the plus strand. Samples held 43,870 to 66,106 reads, so the smallest values rest on one or two reads. The authors trace changes outside the varied positions to PCR and sequencing errors or to mutation in the plant; presence does not show that a variant is infectious alone. Wild type was 33.9 per thousand in the pool and the most common sequence in every sample (inoculated region 202, 200, 159; leaf margin 724, 746, 710; systemic leaves 856, 883, 880).

GGAAACCGGAGCUUC (pool 0.256) read inoculated region 0.124; leaf margin 0; systemic leaves 0.
GGAAACCGUCCACUC (pool 0.128) read inoculated region 0.0805; leaf margin 0.00668; systemic leaves 0.
GGAAACCGCGAGAGC (pool 0.320) read inoculated region 0.345; leaf margin 0.136; systemic leaves 0.0107.
GGAAACCGGAAUUCC (pool 0.144) read inoculated region 0.0749; leaf margin 0.0208; systemic leaves 0.
GGAAACCGAGUGUUC (pool 0.224) read inoculated region 0.270; leaf margin 0.115; systemic leaves 0.0161.
GGAAACCGCGAUCCC (pool 0.304) read inoculated region 0.105; leaf margin 0.0134; systemic leaves 0.
GGAAACCGCGUGUAC (pool 0.160) read inoculated region 0.316; leaf margin 0.139; systemic leaves 0.0360.
GGAAACCGUCGGAUC (pool 0.224) read inoculated region 0.0883; leaf margin 0.0134; systemic leaves 0.
GGAAACCGUACGUGC (pool 0.144) read inoculated region 0.305; leaf margin 0.0616; systemic leaves 0.0691.
GGAAACCGGUGGAGC (pool 0.272) read inoculated region 0.0731; leaf margin 0.0316; systemic leaves 0.
GGAAACCGUGCGUUC (pool 0.144) read inoculated region 0.350; leaf margin 0.0598; systemic leaves 0.0610.
GGAAACCGUCCUUAC (pool 0.336) read inoculated region 0.417; leaf margin 0.104; systemic leaves 0.0540.
GGAAACCGGACCCGC (pool 0.320) read inoculated region 0.134; leaf margin 0.0121; systemic leaves 0.
GGAAACCGAUUUCAC (pool 0.240) read inoculated region 0.0883; leaf margin 0; systemic leaves 0.
GGAAACCGGCACGAC (pool 0.240) read inoculated region 0.0558; leaf margin 0.00539; systemic leaves 0.
GGAAACCGGCGACGC (pool 0.160) read inoculated region 0.0923; leaf margin 0; systemic leaves 0.
GGAAACCGCUUAGGC (pool 0.160) read inoculated region 0.0894; leaf margin 0; systemic leaves 0.
GGAAACCGGUCGAGC (pool 0.176) read inoculated region 0.0616; leaf margin 0.0108; systemic leaves 0.00760.
GGAAACCGCCGAAUC (pool 0.176) read inoculated region 0.176; leaf margin 0.0208; systemic leaves 0.00537.
GGAAACCGGUUACCC (pool 0.160) read inoculated region 0.0796; leaf margin 0.00539; systemic leaves 0.
GGAAACCGGAACCCC (pool 0.336) read inoculated region 0.198; leaf margin 0.0134; systemic leaves 0.00537.
GGAAACCGCAAAGAC (pool 0.176) read inoculated region 0.136; leaf margin 0.0275; systemic leaves 0.
GGAAACCGGGCAAUC (pool 0.144) read inoculated region 0.0978; leaf margin 0.0241; systemic leaves 0.
GGAAACCGCAUUAGC (pool 0.128) read inoculated region 0.0987; leaf margin 0.00668; systemic leaves 0.
GGAAACCGCAGCCCC (pool 0.336) read inoculated region 0.0759; leaf margin 0.00668; systemic leaves 0.
GGAAACCGGCUGCCC (pool 0.352) read inoculated region 0.0770; leaf margin 0.00539; systemic leaves 0.00537.
GGAAACCGCAAUUAC (pool 0.272) read inoculated region 0.307; leaf margin 0.130; systemic leaves 0.0230.
GGAAACCGUUCCACC (pool 0.288) read inoculated region 0.115; leaf margin 0.0121; systemic leaves 0.
GGAAACCGUAGGGUC (pool 0.240) read inoculated region 0.0621; leaf margin 0; systemic leaves 0.
GGAAACCGGCGCGGC (pool 0.160) read inoculated region 0.140; leaf margin 0.0262; systemic leaves 0.
GGAAACCGGUUUAAC (pool 0.240) read inoculated region 0.141; leaf margin 0.0134; systemic leaves 0.
GGAAACCGUAAAAAC (pool 0.176) read inoculated region 0.387; leaf margin 0.185; systemic leaves 0.0481.
GGAAACCGGGAAGCC (pool 0.272) read inoculated region 0.0668; leaf margin 0.00668; systemic leaves 0.

The opening 2 entries, copied out:

sequence,pool,inoculated region,leaf margin,systemic leaves
GGAAACCGGAGCUUC,0.256,0.124,0,0
GGAAACCGUCCACUC,0.128,0.0805,0.00668,0